For one substance, loss of the ability to interact, against wild-type P7 results are on record in article PMC3985653, “A bacteriophage transcription regulator inhibits bacterial transcription initiation by σ-factor displacement” (2014).

In this assay the target is λCI-Ec β flap domain (aa residues 831–1057) (Escherichia coli) (UniProt P0A8V2). Kind of assay: two-hybrid.

Substance “α-P7 (R60E) fusion protein (natural protein)” displayed a loss of the ability to interact, against wild-type P7 of 50%.
